Data as given in PubChem BioAssay AID504761 (Drosophila RNAi Screening Center, 2011)
In all, the deposit lists about 22,000 reagents; shown is an unselected part of those that have a named target and a result. Over the whole deposit, 116 (0.52%) were called active. 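Calls depend on retest data that are not deposited; infection was ranked per plate without normalising between plates; the unit of the infection score is not given.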 Raw values vary from plate to plate and are shown uncorrected. A number with no mark means an inactive call. Names joined by + are all predicted targets of the reagent. Not stated in the record: the amount of reagent, the time to read-out.

Assay: 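Insect host genes that dengue virus relies on to spread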 (primary screen)
System: D.Mel-2 cells from Drosophila
Knock-down reagent: long dsRNA against Drosophila genes
Conditions: infection with dengue virus type 2; dose and infection time not stated
Detection: 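Per well on two replicate plates, imaging gave the percent of cells positive for viral envelope protein, ranked by infection, and a nuclear count of cells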
Direction: infection score: higher = more virus-infected cells; cell count: higher = more cells in the well
Hit rule: 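Very low infection ranking in both replicate wells (chance probability at most 0.065), then a retest showing infection dropped 1.5-fold or more at p below 0.05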
Calls: active = confirmed: knock-down lowers infection; inactive = not picked or not confirmed

target gene | DRSC id | infection score, replicate 1 | infection score, replicate 2 | cell count, replicate 1 | cell count, replicate 2
RhoGAP19D | DRSC20499 | 3.8 | 1.45 | 6796 | 6690
RhoGAP19D | DRSC20500 | 1.32 | 1.12 | 6147 | 5156
CG4849 | DRSC15662 | 39 | 38.1 | 3141 | 2808
CG4849 | DRSC27175 | 31 | 43.5 | 2013 | 3497
CG14020 | DRSC02350 | 2.07 | 1.51 | 6579 | 6540
Ir84a | DRSC12510 | 5.18 | 8.47 | 6724 | 6130
Ir84a | DRSC27487 | 4 | 7.59 | 6530 | 6327
CG31301 | DRSC22164 | 11.7 | 26.9 | 5673 | 3024
Glut3 | DRSC16681 | 3.1 | 6.03 | 6638 | 7361
Glut3 | DRSC26249 | 5.79 | 1.68 | 6240 | 6250
CG11449 | DRSC11662 | 7.67 | 9.43 | 6308 | 6472
CG11449 | DRSC29180 | 14.7 | 20.8 | 5891 | 6287
CG30008 | DRSC21576 | 1.94 | 20.2 | 5610 | 5656
CG30008 | DRSC27726 | 12.9 | 34.8 | 6589 | 5234
Yip1d1 | DRSC02166 | 23 | 6.13 | 5789 | 5937
CG43795 | DRSC04192 | 6.73 | 13.3 | 6718 | 6871
CG43795 | DRSC04193 | 18.8 | 14.3 | 4448 | 4357
CG43795 | DRSC04194 | 12.7 | 3.2 | 6346 | 6756
CG43795 | DRSC04309 | 2.74 | 7.82 | 6608 | 6766
CG43795 | DRSC04310 | 10.2 | 10.8 | 6726 | 7111
CG43795 | DRSC22826 | 1.14 | 15.4 | 6665 | 4085
CG43795 | DRSC26752 | 3.39 | 12.9 | 6307 | 6184
CG12128 + CG1407 | DRSC06446 | 19.4 | 17.5 | 5867 | 6123
CG4880 | DRSC19923 | 7.06 | 28.4 | 6164 | 6013
soti | DRSC16432 | 9.97 | 18 | 6371 | 6583
soti | DRSC28682 | 13.8 | 3.77 | 3538 | 795
CG32588 | DRSC22285 | 3.23 | 11.8 | 5721 | 5290
CG13005 | DRSC19524 | 6.31 | 10.2 | 6072 | 6308
Vtld + CG42529 | DRSC10102 | 3.06 | 7.24 | 6104 | 6506
luna | DRSC05253 | 2.51 | 3.28 | 6102 | 5790
luna | DRSC24992 | 4.99 | 1.5 | 6056 | 6390
CG30020 | DRSC06252 | 2.42 | 2.08 | 5939 | 5916
CG30020 | DRSC06730 | 2.74 | 6.47 | 6360 | 6384
et | DRSC19582 | 6.89 | 5.86 | 5997 | 6216
SdhBL | DRSC20039 | 7.57 | 8.98 | 5743 | 4902
Ubqn | DRSC19581 | 13.4 | 4.87 | 3492 | 4144
Ubqn | DRSC24055 | 1.64 | 3.38 | 2736 | 2784
jdp | DRSC16975 | 3.5 | 12.4 | 5636 | 6464
jdp | DRSC29394 | – | 12.3 | 32 | 1724
CG1582 | DRSC19732 | 1.95 | 8 | 6155 | 6301
CG5157 | DRSC10488 | 1.36 | 3 | 6083 | 5868
CG5157 | DRSC27474 | 40.9 | 25.2 | 5185 | 6336
CG1137 | DRSC12529 | 2.89 | 6.07 | 6540 | 7034
CG1137 | DRSC29434 | 20.1 | 16.7 | 5383 | 2949
GstT3 | DRSC20541 | 7.39 | 1.42 | 3966 | 6062
CheB38b | DRSC22874 | 1.23 | 0.85 | 5931 | 6444
CG16739 | DRSC06621 | 2.18 | 2.88 | 6324 | 6176
CG15539 | DRSC15075 | 1.28 | 14.8 | 705 | 3666
CG10669 | DRSC14261 | 6.72 | 8.53 | 5881 | 4478
CNPYb | DRSC09845 | 13 | 18.3 | 7002 | 4320
CG14451 | DRSC11708 | 8.95 | 11.6 | 6627 | 6629
CG14451 | DRSC26512 | 3.17 | 3.83 | 5638 | 5801
slx1 | DRSC12290 | 1.55 | 1.98 | 6658 | 6730
Gyc76C + CG42637 | DRSC11180 | 6.77 | 11.6 | 2009 | 6381
Swip-1 | DRSC02083 | 29.3 | 20.3 | 6440 | 6974
Swip-1 | DRSC02084 | 20.3 | 6.37 | 4873 | 6595
snRNA:U1:95Cc | DRSC13640 | 3.34 | 6.47 | 5891 | 5236
Cpr78Cb | DRSC11847 | 14.3 | 27.2 | 5717 | 4436
Cpr78Cb | DRSC26957 | 7.8 | 8.11 | 6193 | 5933

Single entries from the list.
For “infection score, replicate 1”, RhoGAP19D [DRSC20499] shows 3.8
RhoGAP19D [DRSC20500], infection score, replicate 2 → 1.12
For “cell count, replicate 1”, CG43795 [DRSC04194] has 6346
Value for CG1137 [DRSC12529] under “cell count, replicate 2”: 7034
CG43795 [DRSC04310], infection score, replicate 1 = 10.2
CG16739 [DRSC06621], infection score, replicate 1: 2.18
